Pooled drug test results. Numbers come from NIAID ChemDB, via PubChem.

All rows: tests in culture

a–b is a range or a potency band. MIC50, MIC90 and the like: level of inhibition, or share of isolates inhibited. Lines come from different laboratories, so protocols vary. Percent inhibition refers to the dose given; in toxicity tests it is the harm to the cells. ECn: concentration that inhibits the pathogen or its effect by n%. Blank or dashed fields: not listed here.

SMILES | strain | dose | cell line | organism | endpoint | result
CCn1cnc(=N)c2[nH]cnc21 | - | 100 µg/mL | BSC-1 | Vaccinia virus | inhibition | 0%
Cn1cc(NC(=O)c2cc(NC(=O)c3cc([N+](=O)[O-])cn3C)cn2C)cc1C(=O)NCCC(=N)N | Noguchi | 200 µg/mL | BSC-1 | Vaccinia virus | inhibition | 0%
CCCCCCCCCCCCCCCC(=O)OC[C@H]1O[C@H](OC(=O)NS(=O)(=O)OC[C@H]2O[C@@H](n3ccc(=O)[nH]c3=O)[C@H](OC(C)C)[C@@H]2OC(C)C)[C@H](OC(=O)CCCCCCCCCCCCCCC)[C@@H](OC(=O)CCCCCCCCCCCCCCC)[C@@H]1OC(=O)CCCCCCCCCCCCCCC | - | - | VERO | African swine fever virus | EC50 | 25 µg/mL
O=[N+]([O-])c1ccc2c(c1)c(N=NC(=S)Nc1ccc(Cl)cc1)c(O)n2CN1CCCCC1 | - | - | VERO | Yellow fever virus | EC50 | >20 µg/mL
CC[C@@H](C(C)C)[C@H](O)[C@@H](O)[C@@H](C)[C@H]1CC[C@H]2[C@@H]3CC(=O)[C@H]4C[C@@H](OC(C)=O)CC[C@]4(C)[C@H]3CC[C@]12C | IV4454 | - | VERO | Junin virus | EC90 | 3.6 µM
COC(=O)c1ncn([C@H]2O[C@@H](COCc3ccccc3)[C@H](OCc3ccccc3)[C@@H]2OCc2ccccc2)c1C(=O)OC | - | - | - | Ebola virus | EC50 | 19 µg/mL
CC(C)CCCC(COS(=O)(=O)O)C1CCC2C3CC=C4C[C@H](O)[C@@H](OS(=O)(=O)O)CC4(C)C3CCC12C | IV4454 | 40 µg/mL | VERO | Junin virus | inhibition | 8.7%
CCCn1cnc(=N)c2[nH]cnc21 | - | 6 µg/mL | BSC-1 | Vaccinia virus | inhibition | 0%
c1ccc(C2COc3ccccc3C2)cc1 | IA (TYPE 2) | 10 µM | HEP-2 | Poliovirus | inhibition | 70%
C=CCNC(=S)N=Nc1c(O)n(CN2CCCCC2)c2ccc([N+](=O)[O-])cc12 | - | - | VERO | Yellow fever virus | EC50 | >4 µg/mL
CC(NCNc1ccc2ccccc2c1)C(=O)O | A2/ADACHI | 244 µg/mL | CEF | Influenza A virus (H2N2) | inhibition | 29.6%
CC(=O)O[C@H]1C[C@H](n2cc(C)c(=O)[nH]c2=O)O[C@@H]1COS(=O)(=O)NC(=O)O[C@H]1O[C@H](COCc2ccccc2)[C@@H](OCc2ccccc2)[C@H](OCc2ccccc2)[C@H]1OCc1ccccc1 | - | - | VERO | African swine fever virus | EC50 | 10 µg/mL
CC(C)=CCCC(COS(=O)(=O)O)C1CCC2C3CC=C4C[C@H](O)[C@@H](OS(=O)(=O)O)CC4(C)C3CCC12C | IV4454 | 40 µg/mL | VERO | Junin virus | inhibition | 35%
Brc1ccc(C2=Cc3cc(Br)ccc3OC2)cc1 | TYPE 2 | - | HEP-2 | Poliovirus | EC50 | >10 µM
O=C(NS(=O)(=O)OC[C@H]1O[C@@H](n2ccc(=O)[nH]c2=O)[C@H](O)[C@@H]1O)O[C@H]1O[C@H](COC(=O)c2ccccc2)[C@@H](OC(=O)c2ccccc2)[C@H](OC(=O)c2ccccc2)[C@H]1OC(=O)c1ccccc1 | - | - | VERO | African swine fever virus | EC50 | 18 µg/mL
O=c1cnn([C@@H]2O[C@H](CO)[C@@H](O)[C@H]2O)c(=O)[nH]1 | Nakayama | - | VERO | Japanese encephalitis virus | EC50 | 0.48 µg/mL
Nc1ccn(C[C@H]2COP(=O)(O)CO2)c(=O)n1 | Isolate Higgins | - | VERO | Variola virus | EC50 | 17 µg/mL
Nc1cnn([C@@H]2O[C@H](CO)C(O)C2O)c(=S)n1 | Nakayama | - | VERO | Japanese encephalitis virus | EC50 | 465 µg/mL
CC(=O)OC[C@H]1O[C@H](OC(=O)NS(=O)(=O)OC[C@H]2O[C@@H](n3ccc(=O)[nH]c3=O)[C@H](OC(C)C)[C@@H]2OC(C)C)[C@H](OC(C)=O)[C@@H](OC(C)=O)[C@@H]1OC(C)=O | - | - | VERO | African swine fever virus | EC50 | >100 µg/mL
Nc1ccn(C[C@@H](CO)OCP(=O)(O)O)c(=O)n1 | Isolate 7125 | - | VERO | Variola virus | EC50 | 12 µg/mL
CC[C@@H](C(C)C)[C@@H](O)[C@H](O)[C@@H](C)[C@H]1CC[C@H]2[C@@H]3CC(=O)[C@@]4(O)C[C@H](O)[C@H](O)C[C@]4(C)[C@H]3CC[C@]12C | IV4454 | - | VERO | Junin virus | EC90 | 4 µM
N=c1ncn(CC2CCCCC2)c2nc[nH]c12 | - | 50 µg/mL | BSC-1 | Vaccinia virus | inhibition | 7%
Nc1nc(=O)n([C@@H]2C=C(CO)[C@@H](O)[C@H]2O)cc1Br | Bangladesh 1975 | - | - | Variola virus | EC50 | 100 µg/mL
N=C(N)c1ncn([C@@H]2O[C@H](CO)[C@@H](O)[C@H]2O)n1 | - | - | - | Variola virus | EC50 | 1–100 µM
CC[C@@H](C(C)C)[C@@H](O)[C@H](O)[C@@H](C)[C@H]1CC[C@H]2[C@@H]3CC(=O)[C@@]4(O)C[C@@H](Br)CC[C@]4(C)[C@H]3CC[C@]12C | IV4454 | - | VERO | Junin virus | EC90 | 6.6 µM
Nc1ccn([C@@H]2C=C(CO)[C@@H](O)[C@H]2O)c(=O)n1 | 7124 | - | - | Variola virus | EC50 | 0.08 µg/mL
N=c1ncn(Cc2cccc([N+](=O)[O-])c2)c2nc[nH]c12 | - | 12 µg/mL | BSC-1 | Vaccinia virus | inhibition | 0%
CC(C)NS(=O)(=O)OC[C@H]1O[C@@H](n2ccc(=O)[nH]c2=O)C2OC(C)(C)OC21 | - | - | VERO | African swine fever virus | EC50 | 100 µg/mL
CC1S/C(=N/N=C2\C(=O)Nc3ccc([N+](=O)[O-])cc32)N(c2ccc(Br)cc2)C1=O | - | - | VERO | Yellow fever virus | EC50 | 1.96 µg/mL
CC(C)=CCC[C@@H](COS(=O)(=O)O)C1CCC2C3CC[C@H]4C[C@H](OS(=O)(=O)O)[C@@H](O)CC4(C)C3CCC21C | IV4454 | 40 µg/mL | VERO | Junin virus | inhibition | 3.5%
Cn1cc(NC(=O)c2cc(NC(=O)CN=C(N)N)cn2C)c(C(=O)NCCC(=N)N)c1 | Noguchi | 100 µg/mL | BSC-1 | Vaccinia virus | inhibition | 100%
COc1cc(O)c2c(c1)C(=O)c1c(cc3c(c1O)-c1c(cc(C)c(C(=O)N[C@H](C)C(=O)O)c1O)[C@H](O[C@@H]1O[C@H](C)[C@H](O)[C@H](O[C@@H]4OC[C@@H](O)[C@H](O)[C@H]4O)[C@H]1O)[C@H]3O)C2=O | 7 isolates | - | - | Histoplasma capsulatum | MIC | 10–20 µg/mL
Clc1ccc(C2=Cc3ccccc3OC2)cc1 | II (TYPE 2) | 10 µM | HEP-2 | Poliovirus | inhibition | 20%
O=[N+]([O-])c1ccc2c(c1)c(N=NC(=S)NC1CCCCC1)c(O)n2CN1CCOCC1 | - | - | VERO | Yellow fever virus | EC50 | <0.8 µg/mL
C[C@@H](SC1COC(/C=C/C=C/c2ccc(C#N)cc2F)OC1)[C@](O)(Cn1cncn1)c1ccc(F)cc1F | 50 strains | - | - | Histoplasma capsulatum | MIC50 | ≤0.015 µg/mL
O=C(NS(=O)(=O)OC[C@H]1O[C@@H](n2ccc(=O)[nH]c2=O)[C@H](O)[C@@H]1O)O[C@H]1O[C@H](COC(=O)c2ccccc2)[C@@H](OC(=O)c2ccccc2)[C@H](OC(=O)c2ccccc2)[C@H]1OC(=O)c1ccccc1 | - | - | VERO | African swine fever virus | EC50 | 18 µg/mL
CN1C(=O)CS/C1=N/N=C1\C(=O)Nc2ccc([N+](=O)[O-])cc21 | - | - | VERO | Yellow fever virus | EC50 | >20 µg/mL
CC[C@@H](C(C)C)[C@H](O)[C@@H](O)[C@@H](C)[C@H]1CC[C@H]2[C@@H]3CC(=O)[C@@]4(O)C[C@@H](OC(C)=O)CC[C@]4(C)[C@H]3CC[C@]12C | IV4454 | - | VERO | Junin virus | EC90 | 15.9 µM
O=c1cnn([C@@H]2O[C@H](COP(=O)(O)O)[C@@H](O)[C@H]2O)c(=O)[nH]1 | Nakayama | - | VERO | Japanese encephalitis virus | EC50 | 1.86 µg/mL
Nc1ccn([C@@H]2C=C(CO)[C@@H](O)[C@H]2O)c(=O)n1 | 7124 | - | VERO | Variola virus | EC50 | <0.05 µg/mL
CC(=O)OC[C@H]1O[C@@H](n2ncc(=O)[nH]c2=S)C(OC(C)=O)C1OC(C)=O | Nakayama | - | VERO | Japanese encephalitis virus | EC50 | 21.9 µg/mL
CC(C)O[C@@H]1[C@H](OC(C)C)[C@@H](COS(=O)(=O)NC(=O)O[C@H]2O[C@H](COC(=O)c3ccccc3)[C@H](OC(=O)c3ccccc3)[C@H](OC(=O)c3ccccc3)[C@H]2OC(=O)c2ccccc2)O[C@H]1n1ccc(=O)[nH]c1=O | - | - | VERO | African swine fever virus | EC50 | 25 µg/mL
N=c1ncn(Cc2ccco2)c2nc[nH]c12 | - | 25 µg/mL | BSC-1 | Vaccinia virus | inhibition | 0%
CC12CCC3C(C[C@H](OS(=O)(=O)O)[C@H]4C[C@@H](OS(=O)(=O)O)CCC34C)C1CCC2C(=O)CO | IV4454 | 40 µg/mL | VERO | Junin virus | inhibition | 2.6%
Brc1ccc(C2=Cc3ccccc3OC2)cc1 | IB (TYPE 2) | - | HEP-2 | Poliovirus | EC50 | >10 µM
Nc1nc(=O)n([C@@H]2C=C(CO)[C@@H](O)[C@H]2O)cc1F | MPX | - | MK2 | Monkeypox virus | EC50 | 0.61 µg/mL
Nc1ncnc2c1ncn2[C@@H]1C[C@H](NC=O)[C@@H](O)[C@H]1O | - | - | HFF | Venezuelan equine encephalitis virus | EC50 | >100 µg/mL

6 of the rows above, restated:

SMILES	strain	dose	cell line	organism	endpoint	result
Cn1cc(NC(=O)c2cc(NC(=O)CN=C(N)N)cn2C)c(C(=O)NCCC(=N)N)c1	Noguchi	100 µg/mL	BSC-1	Vaccinia virus	inhibition	100%
N=c1ncn(CC2CCCCC2)c2nc[nH]c12	-	50 µg/mL	BSC-1	Vaccinia virus	inhibition	7%
CC(=O)O[C@H]1C[C@H](n2cc(C)c(=O)[nH]c2=O)O[C@@H]1COS(=O)(=O)NC(=O)O[C@H]1O[C@H](COCc2ccccc2)[C@@H](OCc2ccccc2)[C@H](OCc2ccccc2)[C@H]1OCc1ccccc1	-	-	VERO	African swine fever virus	EC50	10 µg/mL
CC(C)=CCCC(COS(=O)(=O)O)C1CCC2C3CC=C4C[C@H](O)[C@@H](OS(=O)(=O)O)CC4(C)C3CCC12C	IV4454	40 µg/mL	VERO	Junin virus	inhibition	35%
CC(C)O[C@@H]1[C@H](OC(C)C)[C@@H](COS(=O)(=O)NC(=O)O[C@H]2O[C@H](COC(=O)c3ccccc3)[C@H](OC(=O)c3ccccc3)[C@H](OC(=O)c3ccccc3)[C@H]2OC(=O)c2ccccc2)O[C@H]1n1ccc(=O)[nH]c1=O	-	-	VERO	African swine fever virus	EC50	25 µg/mL
N=C(N)c1ncn([C@@H]2O[C@H](CO)[C@@H](O)[C@H]2O)n1	-	-	-	Variola virus	EC50	1–100 µM